Experimental data: PubChem BioAssay AID1259414 (Drosophila RNAi Screening Center, 2018)
Assay: 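Genome-wide screen for host control of endosymbiont load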 (primary screen). Cells: Drosophila JW18 cells infected with Wolbachia. Knock-down reagent: long dsRNA against Drosophila genes, 0.25 µg dsRNA per well of a 384-well plate. Timing: 5 days. Treatment: cells persistently infected with Wolbachia before knock-down; no added drug. Measured: 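Imaged fluorescence in situ signal for Wolbachia 23S rRNA per DAPI-counted host cell, given as a robust z-score within each plate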. Direction: Wolbachia per cell robust z: higher = more Wolbachia per host cell than the plate typical. Rule for the call: 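Hit when robust z is 1.5 or more, or -1.5 or less, in at least two of three replicates; excludes dsRNAs with several or no targets, genes not expressed in JW18 and well A1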.
The screen tested about 24,000 reagents; this is a random part of those with a known target gene and a result. Of all reagents, about 1,210 (5%) were called active. 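Inactive calls also include excluded dsRNAs with several or no targets, genes unexpressed in JW18, and well A1, regardless of score.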 A number with no mark means an inactive call. Names joined by + are all predicted targets of the reagent. Reagent sequences are not shown.

Gene | DRSC id | Wolbachia per cell robust z, rep 1 | Wolbachia per cell robust z, rep 2 | Wolbachia per cell robust z, rep 3
dah | DRSC20320 | 1.28 | 1.44 | 0.301
CG17571 | DRSC01768 | -0.052 | -0.237 | -0.634
CG17571 | DRSC03755 | 0.448 | 0.0858 | -0.0595
CG17571 | DRSC25111 | 0.329 | 0.116 | -0.195
Mtr4 | DRSC03560 | 0.977 | -0.181 | 0.524
RhoGAP1A | DRSC20649 | -0.257 | -0.905 | -0.796
RhoGAP1A | DRSC20651 | 0.0948 | -1.2 | -0.275
Cralbp | DRSC41308 | 0.682 | 0.821 | 0.493
CG7295 | DRSC00699 | -0.625 | 1.34 | 1
CG13318 | DRSC14581 | 0.113 | 0.261 | -1.55
CG7309 | DRSC03045 | 1.37 | 0.469 | 1.51
CG7309 | DRSC27252 | -0.654 | 0.85 | 0.809
E5 | DRSC13000 | 0.626 | 0.88 | 0.119
E5 | DRSC23157 | -1.43 | -0.0983 | 0.231
E5 | DRSC28326 | -1.53 | -0.869 | -0.574
scb | DRSC05542 | 1.91 | 0.651 | 0.402
scb | DRSC07678 | 0.545 | 0.857 | 1.13
scb | DRSC40708 | -0.155 | -0.191 | 0.581
GCS2alpha | DRSC21036 | -2.56 | -0.965 | -0.701
CG5885 | DRSC02910 | 1.45 | 0.656 | -6.21
CG5885 | DRSC28761 | -1.58 (active) | -3.59 | -2.48
betaNACtes6 + betaNACtes3 | DRSC27147 | -0.0225 | 0.109 | 1.42
CG15390 | DRSC00404 | 0.295 | -4.6 | -1.19
Smg5 | DRSC03124 | -1.34 | -0.178 | -0.438
Smg5 | DRSC27834 | -1.74 (active) | -1.75 | -1.54
CG31515 | DRSC13610 | 0.471 | 1.62 | 0.461
CG11597 | DRSC09847 | -0.207 | 0.326 | -2.2
CG11597 | DRSC41600 | -2.49 | -0.124 | 0.329
CG13334 | DRSC06369 | 0.645 | -0.753 | 0.507
Sbat | DRSC00160 | -0.0595 | -0.986 | -0.389
iPLA2-VIA | DRSC10699 | -7.58 | -0.149 | -0.342
wrd | DRSC16344 | 0.712 | -4.27 | 1.33
wrd | DRSC23189 | 0.319 | 0.949 | 1.59
wrd | DRSC25929 | 0.216 | 0.146 | 0.211
CG17198 + CG17197 | DRSC15190 | -3.96 | -1.86 | 0.632
hpRNA:CR18854 + IP3K1 | DRSC23313 | -0.362 | 0.433 | 0.379
Ugt303B1 | DRSC15141 | 0.327 | -2.42 | 0.738
spag4 | DRSC02973 | 0.404 | -1.76 | 0.197
Uxs | DRSC10941 | 0.614 | -0.664 | 0.131
Uxs | DRSC28512 | 0.202 | 0.211 | -0.182
CkIIbeta2 | DRSC07361 | -3.7 | -0.194 | -0.0423
Cyp309a2 | DRSC00526 | 2.07 | 1.08 | 0.0276
Cyp309a2 | DRSC30018 | -1.18 | 0.611 | -0.383
CG30447 | DRSC05820 | 0.935 | 0.728 | 1.02
CG3309 | DRSC18301 | 0.194 | 0.546 | 0.489
CG3309 | DRSC26197 | 0.1 | 0.728 | 0.521
asRNA:CR32252 | DRSC41327 | 1.63 | 1.08 | 0.212
CG14692 | DRSC14915 | 0.801 | -0.587 | 0.0637
MFS18 | DRSC00452 | 0.543 | -0.468 | -1.23
CG15120 | DRSC06542 | -0.582 | -2.9 | -0.444
Cbp20 | DRSC16601 | -1.12 | 0.149 | -0.042
spir | DRSC03619 | 0.586 | 0.879 | -4.82
spir | DRSC24744 | 0.466 | -1.63 | 1.18
spir | DRSC40746 | 1.29 | 0.241 | 0.514
dom | DRSC04558 | 0.875 | -0.446 | -4.24
dom | DRSC04559 | 1.61 | 1.33 | 1.23
dom | DRSC29669 | 1.12 | 1.52 | 1.48
slmo + CG34179 + IPIP | DRSC38686 | 0.0203 | -2.88 | 0.255
Traf6 | DRSC18725 | -0.866 | -0.882 | 0.279
Tret1-2 | DRSC07117 | 0.42 | 0.75 | 0.334
Tret1-2 | DRSC28985 | 0.0234 | -0.552 | 0.649
CG7367 | DRSC03049 | 0.239 | 0.258 | 0.368
CG7367 | DRSC28024 | -0.0901 | -1.11 | -1.39
Nlg2 | DRSC00957 | 0.459 | 1.44 | -7.3
Nlg2 | DRSC03578 | 0.707 | -1.4 | 1.37
Nlg2 | DRSC25217 | -0.474 | 0.0332 | -0.24
CG14740 | DRSC14960 | -0.36 | 0.0409 | -2.12
Eig71Ek | DRSC11158 | 0.325 | 0.139 | 1.14

Ordered by “Wolbachia per cell robust z, rep 1” (descending): 3 of the entries above
Gene | DRSC id | Wolbachia per cell robust z, rep 1 | Wolbachia per cell robust z, rep 2 | Wolbachia per cell robust z, rep 3
CG13334 | DRSC06369 | 0.645 | -0.753 | 0.507
Sbat | DRSC00160 | -0.0595 | -0.986 | -0.389
CG11597 | DRSC41600 | -2.49 | -0.124 | 0.329
